Compound potency records, mixed from different reports. Data source: NIAID ChemDB in PubChem.

Shared fields: target-level tests; species: HIV-1; target: Reverse transcriptase; method: nucleotide incorporation / radiometric; endpoint: fold resistance

An empty or dashed field is not shown. Conditions beyond the fields shown may differ between rows. Two numbers with a dash give a range or band. Fold resistance has wild type as its base.

structure	strain or isolate	mutations	value
CCC1(c2cccc(COc3ccccc3)c2)Oc2ccccc2-n2cccc2C1=O		RT-Y188L	12.5
Cc1cn([C@H]2C=C[C@@H](COP(=O)(O)OP(=O)(O)OP(=O)(O)O)O2)c(=O)[nH]c1=O		RT-E138K	0.8
C#C[C@@]1(COP(=O)(O)OP(=O)(O)OP(=O)(O)O)CC[C@H](n2ccc(N)nc2=O)O1		RT-M184V	4
Cc1c(C(C)c2c(F)cccc2F)nc(N2CCOCC2)[nH]c1=O	IIIB	RT-V106A	>6670
COc1ccc(CSc2nc(Cc3c(Cl)cccc3Cl)c(C)c(=O)[nH]2)c(OC)c1		RT-K103N	>16
Nc1nc2c(ncn2[C@H]2C[C@H](O)[C@@H](COP(=O)(O)OP(=O)(O)OP(=O)(O)O)O2)c(=O)[nH]1		RT-M184V	0.42
O=C(O)Cn1cnc2c(=O)[nH]c(NC(=O)OCc3ccccc3)nc21	NNRTI-resistant	L100I	6.38
Nc1ncnc2c1ncn2[C@H]1CC[C@@H](COP(=O)(O)OP(=O)(O)OP(=O)(O)O)O1		RT-Q151M	6.84
COc1ccc(CSc2nc(Cc3ccc(F)cc3)c(C)c(=O)[nH]2)cc1		RT-181I	~1
CCN1c2ncc(CCOc3ccc(CC(=O)O)c4ccccc34)cc2C(=O)N(C)c2ccc(F)nc21		RT-K103N Y181C	1–10
CC[C@]1(c2ccccc2)Oc2cccnc2-n2cccc2C1=O		RT-K103N	8
CCN1c2ncc(CCOc3ccc(C(=O)O)c4ccccc34)cc2C(=O)N(C)c2ccc(Cl)nc21		RT-V106A	1–10
CCCCOc1ccc(CSc2nc(Cc3c(Cl)cccc3Cl)c(C)c(=O)[nH]2)cc1		RT-181I	>142.8
OCc1cn(Cc2ccncc2)c(Sc2cc(Cl)cc(Cl)c2)c1C1CCC1		RT-Y181I	130
CC(C)=CCN1Cc2cccc3[nH]c(=S)n(c23)C[C@@H]1C		RT-E89G	10
Cc1c(C(C)c2c(F)cccc2F)nc(SC2CCCC2)[nH]c1=O		RT-K103N	6
CCN1c2ncc(CCOc3ccc(CCC(=O)NN)c4ccccc34)cc2C(=O)N(C)c2cccnc21		RT-Y188L	>10
Cc1cc(C)cc(S(=O)(=O)c2c(C(=O)NNCCO)[nH]c3ccc(Cl)cc23)c1		RT-K103N	17
Cc1c(C(C)c2c(F)cccc2F)nc(SC2CCCC2)[nH]c1=O		RT-Y181I	180
CCN1c2ncc(CCOc3ccc(CC(C)C(=O)O)c4ccccc34)cc2C(=O)Nc2c(C)cc(Cl)nc21		RT-V106A	1–10
CCC1(c2ccc(COc3cccc(Cl)c3)cc2)Oc2ccccc2-n2cccc2C1=O		RT-Y181I	>100
NC(=O)OCc1cn(Cc2ccncc2)c(Sc2cc(Cl)cc(Cl)c2)c1C1CCC1		RT-L100I	347.5
CCC1(c2ccc(COc3cccnc3)cc2)Oc2ccccc2-n2cccc2C1=O		RT-K103N	5
Cc1c(Cc2c(Cl)cccc2Cl)nc(S(=O)(=O)Cc2ccc([N+](=O)[O-])cc2)[nH]c1=O		RT-K103N	~1
CCC1(c2ccc(COc3ccccc3)cc2)Oc2ccccc2-n2cccc2C1=O		RT-K103N	2.6
Cc1c(Cc2c(Cl)cccc2Cl)nc(SCc2ccc3c(c2)C(=O)c2ccccc2C3=O)[nH]c1=O		RT-181I	>114
Cc1c(C(C)c2c(F)cccc2F)nc(N(C)C)[nH]c1=O		RT-K103N	7
Nc1ccn([C@H]2C[C@H](O)[C@@H](COP(=O)(O)OP(=O)(O)OP(=O)(O)O)O2)c(=O)n1		RT-Q151M	1.1
CCOc1cccc(C2(CC)Oc3ccccc3-n3cccc3C2=O)c1		RT-Y181I	2.76
CCN1c2ncc(CNc3cccc([N+](=O)[O-])c3)cc2C(=O)N(C)c2ccc(Cl)nc21		RT-Y181C	1.19
Cc1c(Cc2c(Cl)cccc2Cl)nc(SCc2cccc(C#N)c2)[nH]c1=O		RT-K103N	>42
CCN1c2ncc(COc3cc[n+]([O-])c(C(F)(F)F)c3)cc2C(=O)N(C)c2ccc(Cl)nc21		RT-Y181C	1.07
COc1cc(CSc2nc(Cc3c(Cl)cccc3Cl)c(C)c(=O)[nH]2)cc(OC)c1		RT-181I	>1.56
C=C(C)CCOCc1ccc(C2(CC)Oc3ccccc3-n3cccc3C2=O)cc1		RT-Y181I	>3.57
CC(C)=CCOc1cc(NC(=S)c2ccoc2C)ccc1Cl		RT-P225H	3.2
CCN1c2ncc(Cc3cccc(O)c3)cc2C(=O)N(C)c2ccc(Cl)nc21		RT-Y181C	1.13

A second listing of 3 rows from above:

| structure | strain or isolate | mutations | value |
|---|---|---|---|
| Cc1cc(C)cc(S(=O)(=O)c2c(C(=O)NNCCO)[nH]c3ccc(Cl)cc23)c1 |  | RT-K103N | 17 |
| Cc1c(C(C)c2c(F)cccc2F)nc(SC2CCCC2)[nH]c1=O |  | RT-Y181I | 180 |
| CC(C)=CCN1Cc2cccc3[nH]c(=S)n(c23)C[C@@H]1C |  | RT-E89G | 10 |